From patent US8722123B2, “Antimicrobial composition and use as food treatment” (priority 2008, dated 2014)

System: E. coli O157:H7 on alfalfa seeds
Experiment: E. coli O157:H7 inactivation on alfalfa seeds
Details: for E. coli O157:H7 counts, 0 min of exposure / E. coli O157:H7 counts, 1 min of exposure / E. coli O157:H7 counts, 2 min of exposure / E. coli O157:H7 counts, 5 min of exposure / E. coli O157:H7 counts, 60 min of exposure / E. coli O157:H7 counts, 10 min of exposure / E. coli O157:H7 counts, 20 min of exposure / E. coli O157:H7 counts, 30 min of exposure: 21° C.

SMILES: [Ca+2].[O-]Cl.[O-]Cl [20,000 ppm, Ca(OCl)2, pH 11.4, calcium hypochlorite]
- E. coli O157:H7 population reduction (seeds dried 4 h, treatment for up to 60 min): greater than 6 log CFU/g
- E. coli O157:H7 counts, 0 min of exposure (seeds dried for 4 h): +^b (+, Below the minimum detection level by direct plating (<1.7 log CFU/ml), but positive by enrichment culture.)
- E. coli O157:H7 counts, 1 min of exposure (seeds dried for 4 h): + (+, Below the minimum detection level by direct plating (<1.7 log CFU/ml), but positive by enrichment culture.)
- E. coli O157:H7 counts, 2 min of exposure (seeds dried for 4 h): −^c
- E. coli O157:H7 counts, 5 min of exposure (seeds dried for 4 h): + (+, Below the minimum detection level by direct plating (<1.7 log CFU/ml), but positive by enrichment culture.)
- E. coli O157:H7 counts, 60 min of exposure (seeds dried for 4 h): + (+, Below the minimum detection level by direct plating (<1.7 log CFU/ml), but positive by enrichment culture.)
- E. coli O157:H7 counts, 0 min of exposure (seeds dried for 24 h): + (+, Below the minimum detection level by direct plating (<1.7 log CFU/ml), but positive by enrichment culture.)
- E. coli O157:H7 counts, 1 min of exposure (seeds dried for 24 h): −
- E. coli O157:H7 counts, 2 min of exposure (seeds dried for 24 h): −
- E. coli O157:H7 counts, 5 min of exposure (seeds dried for 24 h): −
- E. coli O157:H7 counts, 10 min of exposure (seeds dried for 24 h): −
- E. coli O157:H7 counts, 20 min of exposure (seeds dried for 24 h): −
- E. coli O157:H7 counts, 30 min of exposure (seeds dried for 24 h): −
- E. coli O157:H7 counts, 60 min of exposure (seeds dried for 24 h): + (+, Below the minimum detection level by direct plating (<1.7 log CFU/ml), but positive by enrichment culture.)
- E. coli O157:H7 populations after treatment (seeds dried for 24 h, 5 min): levels only detectable by enrichment culture
- E. coli O157:H7 counts, 0 min of exposure (seeds dried for 48 h): + (+, Below the minimum detection level by direct plating (<1.7 log CFU/ml), but positive by enrichment culture.)
- E. coli O157:H7 counts, 1 min of exposure (seeds dried for 48 h): −
- E. coli O157:H7 counts, 2 min of exposure (seeds dried for 48 h): + (+, Below the minimum detection level by direct plating (<1.7 log CFU/ml), but positive by enrichment culture.)
- E. coli O157:H7 counts, 5 min of exposure (seeds dried for 48 h): −
- E. coli O157:H7 counts, 10 min of exposure (seeds dried for 48 h): −
- E. coli O157:H7 counts, 20 min of exposure (seeds dried for 48 h): −
- E. coli O157:H7 counts, 30 min of exposure (seeds dried for 48 h): −
- E. coli O157:H7 counts, 60 min of exposure (seeds dried for 48 h): −
- E. coli O157:H7 counts, 0 min of exposure (seeds dried for 72 h): + (+, Below the minimum detection level by direct plating (<1.7 log CFU/ml), but positive by enrichment culture.)
- E. coli O157:H7 counts, 1 min of exposure (seeds dried for 72 h): + (+, Below the minimum detection level by direct plating (<1.7 log CFU/ml), but positive by enrichment culture.)
- E. coli O157:H7 counts, 2 min of exposure (seeds dried for 72 h): + (+, Below the minimum detection level by direct plating (<1.7 log CFU/ml), but positive by enrichment culture.)
- E. coli O157:H7 counts, 5 min of exposure (seeds dried for 72 h): −
- E. coli O157:H7 counts, 10 min of exposure (seeds dried for 72 h): + (+, Below the minimum detection level by direct plating (<1.7 log CFU/ml), but positive by enrichment culture.)
- E. coli O157:H7 counts, 20 min of exposure (seeds dried for 72 h): + (+, Below the minimum detection level by direct plating (<1.7 log CFU/ml), but positive by enrichment culture.)
- E. coli O157:H7 counts, 30 min of exposure (seeds dried for 72 h): −
- E. coli O157:H7 counts, 60 min of exposure (seeds dried for 72 h): −

Marks after values point to notes of the source that are not given here.
